In patent publication US5854049:

Assays:
[1] = target: purified human Glu-plasminogen (American Diagnostica, 98% Glu-type plasminogen) (human) (UniProt P00747)
[2] = target: purified human Glu-plasminogen (American Diagnostica, 98% Glu-type plasminogen) (human) (UniProt P00747); remark: listed apart in the source

Row | Substance | amidolytic kinetic parameters of the SK-PAC on S2251: Km (µM), Kcat (S^-1), kcat/Km (µM^-1 S^-1) [1] [µM^-1 S^-1] | lag phase of plasminogen activation (S2251 hydrolysis, absorption at 405 nm, 21° C.) [2] [s]
1 | rSK5mut (multiple mutant containing R10A, K36A, R45A, K51A, and K59A) | 0.675 | 
2 | rSKΔ14 (fusion protein with MBP linked to the amino terminus of nSK in which the amino terminal 13 amino acids of nSK were deleted) | 0.096 | 250
